Compound potency records, mixed from different reports. Data source: NIAID ChemDB in PubChem.

Common to all: cytotoxicity tests; cells: HEL; endpoint: CC50

Conditions beyond the fields shown may differ between rows. CCn: concentration that lowers growth or viability of the cells by n%.

SMILES,result
Nc1ncnc2c1ncn2[C@@H]1O[C@H](/C=N/O)C[C@H]1O,>50 µg/mL
Cc1c(Br)cc(Br)c2ncc(CSCc3ccc(Cl)c(Cl)c3)n12,>50 µg/mL
Cn1cc(C(=O)O)c(=O)c2cc(N)c(N3CCN(c4cccc(C(F)(F)F)c4)CC3)cc21,1.8 µg/mL
NC(=O)c1c(Cl)c(-c2cccnc2)n2c1CCCC2,101 µM
CCCCCCCCCCc1cc2cn([C@H]3C[C@H](O)[C@@H](CO)O3)c(=O)nc2o1,>50 µM
Nc1nc(=O)n([C@H]2C[C@H](O)[C@@H](CO)O2)cc1/C=C/Cl,>727 µM
Cc1ccc(C)c(C(C)Sc2cccc[n+]2[O-])c1,>20 µg/mL
CCCCCCCCc1cc2cn([C@H]3CC[C@@H](CO)O3)c(=O)nc2o1,112 µM
Cc1cc(-c2ccsc2)c2ncc(CSCCc3ccccc3)n2c1,>50 µg/mL
COC(=O)[C@]1(C)CCC[C@]2(C)c3cc(Br)c4nc(C)[nH]c4c3CCC12,2.9 µg/mL
Cc1ccc(C)c(C(C)S(=O)(=O)c2cc(C)cc(C)[n+]2[O-])c1,>100 µg/mL
CCCCCCCCCCc1cc2cnc(OC3CCCC3)nc2o1,>200 µM
Cc1ccc(-c2cc3cn([C@H]4C[C@H](O)[C@@H](CO)O4)c(=O)nc3o2)cc1,>200 µM
CC(=NNC(=O)COc1cccc2ccccc12)c1ccccc1Br,16.2 µg/mL
Nc1nc2c(ncn2[C@@H]2C[C@H](CO)[C@H]2CO)c(=O)[nH]1,10 µg/mL
CCCCCCCCCCc1cc2cnc(OC3CCCCC3)nc2o1,>200 µM
CC(C)c1cc(CS(=O)(=O)c2cccc[n+]2[O-])c(C(C)C)cc1Br,4.4 µg/mL
Nc1nc(N)c2ncn([C@@H]3O[C@H](CO)[C@H]3CO)c2n1,212 µg/mL
COC(=O)[C@]1(C)CCC[C@]2(C)c3ccc4[nH]c(C)nc4c3CCC12,15.1 µg/mL
Cc1ccn2c(CSCc3ccccc3)cnc2c1,45 µg/mL
CCCCCCCCc1cc2cnc(OCCC(C)C)nc2o1,117 µM
CCCCCCCCCCc1cc2cn([C@H]3C[C@H](O)[C@@H](CO)O3)c(=O)nc2s1,54 µM
CC(C)(C)c1nc2ccccn2c1NC(=S)Nc1ccccc1,>50 µg/mL
Cc1cccc(CSCc2cnc3c(Br)cc(Br)c(C)n23)c1,35 µg/mL
O=C(CC1CCCCC1)N(O)c1ccccc1,>500 µg/mL
CC1(C)CCCN1CC12CC3CC(CC(C3)C1)C2,>50 µg/mL
O=C(COc1cccc2ccccc12)NN=Cc1ccccc1Cl,62.7 µg/mL
Cc1c(Br)cc(Br)c2ncc(CSCc3ccc(Cl)cc3Cl)n12,>50 µg/mL
CCCCc1cc2cn([C@H]3C[C@H](O)[C@@H](CO)O3)c(=O)nc2s1,>200 µM
Cc1ccn2c(CSCCO)cnc2c1,70 µg/mL
O=C(CC1CCCCC1)N(O)c1ccc(Cl)cc1,129 µg/mL
Cc1cc(-c2ccccc2)cn2c(CSCCc3ccccc3)cnc12,31 µg/mL
Cc1ccccc1C(c1ccccc1)S(=O)(=O)c1cccc[n+]1[O-],>50 µg/mL
C[C@H](NC(=O)N1C(=O)C[C@]1(Cc1ccccc1)C(=O)OC(C)(C)C)c1ccccc1,164 µM
CCCCCCCc1cc2cn(C3CCCC3)c(=O)nc2o1,194 µM
CCON=C[C@H]1O[C@@H](n2cnc3c(N)ncnc32)[C@H](O)[C@@H]1O,>50 µg/mL
Nc1nc2c(ncn2COCCO)c(=O)[nH]1,>400 µM
Cc1c(Br)cc(Br)c2ncc(CSCc3ccccc3Cl)n12,43 µg/mL
Cc1ccc(Cl)c(C(C)S(=O)c2cccc[n+]2[O-])c1,0.067 µg/mL
Nc1ncnc2c1nnn2[C@@H]1C=C(CO)[C@@H](O)[C@H]1O,>50 µg/mL
CN(C)CC1CCC(C23CC4CC(CC(C4)C2)C3)[C@@H]1c1ccccc1,>50 µg/mL
O=S(=O)(Cc1ccccc1Cl)c1cccc[n+]1[O-],19 µg/mL
CCCCCCCCCCc1cc2cn(Cc3ccc(OC)cc3)c(=O)nc2o1,>200 µM
Nc1nc2c(ncn2CCC(CO)CO)c(=O)[nH]1,>926 µM
CCc1nc2c(N)ncnc2n1[C@H]1C[C@H](O)[C@@H](CO)O1,>200 µg/mL
Nc1ncnc2c1ccn2[C@@H]1C[C@H](O)[C@@H](O)[C@H]1O,50 µg/mL
Nc1nc2c(ncn2CCCCO)c(=O)[nH]1,400 µM
Cc1ccc(CS(=O)c2cccc[n+]2[O-])cc1C,14 µg/mL
CCCCCCCCc1cc2cn([C@H]3C[C@H](O)[C@@H](CO)O3)c(=O)nc2o1,≥50 µM
C1CCC2(CC1)CCCN2CC12CC3CC(CC(C3)C1)C2,>50 µg/mL
CC1(C)[C@@H](CCO)C[C@H]1n1cnc2c(N)nc(N)nc21,>50 µg/mL
Cc1ccc[n+]([O-])c1S(=O)Cc1c(Cl)cccc1Cl,100 µg/mL
C[C@@H](NC(=O)N1CCC1(Cc1ccccc1)C(=O)OC(C)(C)C)c1ccccc1,57 µM
Cc1c(Br)cc(Br)c2ncc(CSCc3ccco3)n12,>50 µg/mL
CCCCCCCCc1cc2cn(CCC(C)C)c(=O)nc2o1,>200 µM
O=c1[nH]c(=O)n([C@H]2C[C@H](O)[C@@H](CO)O2)cc1F,0.4 µg/mL
Cc1ccc(C)c(C(C)S(=O)(=O)c2ccc(C)c[n+]2[O-])c1,≥100 µg/mL
CC1(C)[C@@H](CCO)C[C@H]1n1nnc2c(N)nc(N)nc21,30 µg/mL
Nc1nc2c(ncn2COC(CO)CO)c(=O)[nH]1,461 µM
Nc1ncnc2c1ncn2[C@@H]1O[C@H](/C=N/O)[C@@H](O)[C@@H]1O,34 µg/mL
O=C(COc1cccc2ccccc12)NN=Cc1cccc(O)c1,62.7 µg/mL
OCCOCc1c(-c2ccccc2)nc2ccccn12,130 µg/mL
CC1(C)[C@@H](CCO)C[C@H]1n1cnc2c(=O)[nH]c(N)nc21,>50 µg/mL
C[C@@H](NC(=O)N1C(=O)C[C@@]1(Cc1ccccc1)C(=O)OC(C)(C)C)c1ccccc1,70 µM
Cc1ccc(C)n2c(CSCc3ccccc3)cnc12,3 µg/mL
Cc1cc(-c2cccc([N+](=O)[O-])c2)c2ncc(CSCCc3ccccc3)n2c1,47 µg/mL
Cc1ccc(CS(=O)(=O)c2cccc[n+]2[O-])cc1[N+](=O)[O-],5.8 µg/mL
Nc1cc2c(=O)c(C(=O)O)cn(C3CC3)c2cc1N1CCN(c2nc3ccccc3s2)CC1,0.009 µg/mL
Nc1nc(=O)n([C@@H]2O[C@H](CO)[C@@H](O)[C@@H]2F)cc1I,81 µM
CC#Cc1nc2c(N)ncnc2n1[C@H]1C[C@H](O)[C@@H](CO)O1,40 µg/mL
CC(C)(C)NC(=O)C1(Cc2ccccc2)CCN1C(=O)OCc1ccccc1,36 µM
COc1ccc(CS(=O)c2cccc[n+]2[O-])cc1,2.1 µg/mL
Cc1nc2ccccn2c1CSCc1ccccc1,33 µg/mL
Nc1nc2c(ncn2COCCO)c(=O)[nH]1,>844 µM
CCCCCCCc1cc2cn(CCCCC)c(=O)nc2o1,>200 µM
COc1ccc(C=NNC(=O)COc2cccc3ccccc23)cc1,100 µg/mL
Nc1ccn(C[C@@H](CO)OCP(=O)(O)O)c(=O)n1,332 µM
O=S(=O)(Cc1ccc(F)cc1)c1cccc[n+]1[O-],24 µg/mL
Nc1ncnc2c1ncn2[C@@H]1O[C@H](C=NOCc2ccccc2)[C@@H](O)[C@H]1O,33 µg/mL
CCC/C=C\c1nc2c(N)ncnc2n1[C@H]1C[C@H](O)[C@@H](CO)O1,40 µg/mL
C/C(=C\CCC1(C)C=Cc2cc(O)cc(C)c2O1)CC/C=C(\C)CC[C@@H](C)C(C)(C)O,22 µM
CC(C)(C)c1nc2ccccn2c1NC(=O)Nc1ccccc1,>50 µg/mL
COC(=O)[C@]1(C)CCC[C@]2(C)c3ccc4[nH]c(C(F)(F)F)nc4c3CCC12,10.8 µg/mL
O=c1[nH]c(=O)n([C@@H]2O[C@H](CO)[C@@H](O)[C@@H]2O)cc1/C=C/Br,>200 µg/mL
CON=C[C@H]1O[C@@H](n2cnc3c(N)ncnc32)[C@H](O)[C@@H]1O,>50 µg/mL
CCCCCCCCCc1cc2cn([C@H]3C[C@H](O)[C@@H](CO)O3)c(=O)nc2o1,>200 µM
Cc1ccc(CS(=O)(=O)c2cccc[n+]2[O-])c(C)c1,16 µg/mL
Cc1ccc2ncc(CSCc3ccccc3)n2c1,23 µg/mL
CCCCCCCC/C=C/CCCCCCCC(=O)O,150 µM
CN(C)c1ccnc(SCc2ccc(Cl)cc2)c1C#N,>100 µg/mL
CC(C)(C)OC(=O)C1(Cc2ccccc2)CCN1C(=O)OCc1ccccc1,34 µM
CCC(c1cc(C)ccc1C)S(=O)(=O)c1cccc[n+]1[O-],>20 µg/mL
COC(=O)[C@]1(C)CCC[C@]2(C)c3cc(Br)c4nc[nH]c4c3CCC12,3.9 µg/mL
Nc1ncnc2c1ncn2[C@H]1C[C@H](O)[C@@H](/C=N/O)O1,14 µg/mL
Cc1c(Br)cc(Br)c2ncc(CSCc3ccccc3)n12,>50 µg/mL
Cn1cc(C(=O)O)c(=O)c2cc(N)c(N3CCN(c4nccs4)CC3)cc21,4.9 µg/mL
Cc1cc(CS(=O)(=O)c2cccc[n+]2[O-])ccc1[N+](=O)[O-],4.9 µg/mL
COc1ccc(-c2cc(C)c3ncc(CSCCc4ccccc4)n3c2)cc1,25.8 µg/mL
CCCCCCCC(c1cc(C)ccc1C)S(=O)(=O)c1cccc[n+]1[O-],>50 µg/mL
CCCCCCCCCCc1cc2cn(C3CCCCC3)c(=O)nc2o1,>200 µM
COc1ccc(/C=C(/C#N)Sc2cccc[n+]2[O-])cc1,35 µg/mL
O=C(COc1cccc2ccccc12)NN=Cc1ccc(O)cc1,60.6 µg/mL
C[C@H](NC(=O)N1C(=O)C[C@@]1(Cc1ccccc1)C(=O)OC(C)(C)C)c1ccccc1,184 µM
Cc1cc(-c2cccc(O)c2)cn2c(CSCCc3ccccc3)cnc12,50 µg/mL
CCCC#Cc1nc2c(N)ncnc2n1[C@H]1C[C@H](O)[C@@H](CO)O1,10 µg/mL

A second listing of 8 rows from above:

{"SMILES": "CCCCCCCCCc1cc2cn([C@H]3C[C@H](O)[C@@H](CO)O3)c(=O)nc2o1", "result": ">200 µM"}
{"SMILES": "CC1(C)[C@@H](CCO)C[C@H]1n1cnc2c(=O)[nH]c(N)nc21", "result": ">50 µg/mL"}
{"SMILES": "Cc1ccc(-c2cc3cn([C@H]4C[C@H](O)[C@@H](CO)O4)c(=O)nc3o2)cc1", "result": ">200 µM"}
{"SMILES": "O=C(COc1cccc2ccccc12)NN=Cc1ccc(O)cc1", "result": "60.6 µg/mL"}
{"SMILES": "CC(C)(C)NC(=O)C1(Cc2ccccc2)CCN1C(=O)OCc1ccccc1", "result": "36 µM"}
{"SMILES": "Nc1nc(=O)n([C@@H]2O[C@H](CO)[C@@H](O)[C@@H]2F)cc1I", "result": "81 µM"}
{"SMILES": "Nc1nc2c(ncn2CCC(CO)CO)c(=O)[nH]1", "result": ">926 µM"}
{"SMILES": "Cc1ccn2c(CSCc3ccccc3)cnc2c1", "result": "45 µg/mL"}